Assay results: patent publication US11604190B2, “Chromogenic medium for the detection and identification of vancomycin resistant enterococci and method therefor” (BECTON DICKINSON AND COMPANY, priority 2006, dated 2023)

Key:
Test in all cases: Streak plate colony color by hydrolysis of chromogenic substrate
Assay type in all cases: cell-based
[1] = test system: E. faecium; details: substrate 0.2 G/L
[2] = test system: E. casseliflavus and E. gallinarum; details: Table 1 medium with inducer MGP 5.0 G/L; FIG. 2
[3] = test system: E. faecalis; details: substrate 0.1 G/L
[4] = Table 1 medium with inducer MGP 5.0 G/L, FIG. 2

Molecule	colony color indicating hydrolysis by E. faecium [1, 4]	colony color indicating hydrolysis by E. faecium ([1]; Table 1 medium, FIG. 1)	colony color indicating hydrolysis of both substrates by E. casseliflavus and E. gallinarum [2]	colony color indicating hydrolysis by E. faecalis [3, 4]	colony color indicating hydrolysis by E. faecalis ([3]; Table 1 medium, FIG. 1)
indolyl-beta-D-galactopyranoside	mauve	mauve	blue		
OC[C@H]1O[C@H](Oc2c[nH]c3ccc(Br)c(Cl)c23)[C@H](O)[C@@H](O)[C@@H]1O [indolyl-alpha-D-glucopyranoside]			blue	green	green
